Patent publication US20170226204A1 (PERONGEN BIOTHERAPEUTICS SUZHOU, published 2017)

Target: T1, human CD7 molecule (human, UniProt P09564 26-240)
T1 sequence (looked up): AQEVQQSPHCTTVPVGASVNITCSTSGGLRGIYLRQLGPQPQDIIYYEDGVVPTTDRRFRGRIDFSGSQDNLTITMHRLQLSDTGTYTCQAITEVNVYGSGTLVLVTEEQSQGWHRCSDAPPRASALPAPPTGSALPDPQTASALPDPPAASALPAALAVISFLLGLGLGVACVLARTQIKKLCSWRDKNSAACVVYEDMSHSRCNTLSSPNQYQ
Assay: cell-based or functional assay

B1: monovalent Nanobody immunotoxin PG001 (VHH-6-PE38) (other)
chain: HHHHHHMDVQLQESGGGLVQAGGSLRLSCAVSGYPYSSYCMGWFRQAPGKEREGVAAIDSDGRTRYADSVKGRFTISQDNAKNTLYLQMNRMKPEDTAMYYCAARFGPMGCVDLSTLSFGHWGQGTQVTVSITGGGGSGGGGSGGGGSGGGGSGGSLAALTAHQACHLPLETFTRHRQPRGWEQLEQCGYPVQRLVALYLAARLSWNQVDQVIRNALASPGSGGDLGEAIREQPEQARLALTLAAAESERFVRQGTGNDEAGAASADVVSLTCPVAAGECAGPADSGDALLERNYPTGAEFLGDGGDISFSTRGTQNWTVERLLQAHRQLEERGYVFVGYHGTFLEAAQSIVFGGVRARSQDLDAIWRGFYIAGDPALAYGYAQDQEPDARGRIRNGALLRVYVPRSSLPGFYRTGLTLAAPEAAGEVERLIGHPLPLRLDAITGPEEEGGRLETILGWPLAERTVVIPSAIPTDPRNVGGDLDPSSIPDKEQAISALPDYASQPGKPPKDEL
For B1, the “inhibition of proliferation of CEM cells (WST-8, 72 h), EC50” value was ~0.5 nM and the “inhibition of proliferation of Jurkat cells (WST-8, 72 h), EC50” value was ~1 nM.
